Measured values from several laboratories, pooled; numbers as filed in NIAID ChemDB.

Shared fields: growth or infection tests; agent: Mycobacterium avium; endpoint: MIC

An empty or dashed field is not shown.

structure | strain or isolate | read by | conditions | value
Cc1ccc2nc(SCc3cc(C(F)(F)F)cc(C(F)(F)F)c3)[nH]c2c1 | MY330/88 |  |  | 125 µM
CCCCS/C(N)=N/NC(=O)c1ccccc1 | ATCC 19421 |  |  | >100 µg/mL
Cc1ccc(Nc2nc(C#N)cnc2C(N)=O)cc1[N+](=O)[O-] | 80/72 |  |  | >100 µg/mL
O=C(Nc1ccc(F)cc1)c1ccccc1O | CNCTC MY330/88 |  |  | 62.5 µM
CCCCc1ccc(NC(=O)c2cc(Br)cc(Br)c2O)cc1 | MY330/88 |  |  | 62.5 µM
CCCCCCSc1ncnc2ccccc12 | CNCTC MY66/72 |  |  | 63 µM
Cc1ccc(-n2c(=O)oc3ccc(Cl)cc3c2=O)cc1 | CNCTC MY330/88 |  |  | 8 µM
COc1cccc(Nc2nc(C#N)cnc2C(N)=O)c1 | 80/72 |  |  | >100 µg/mL
CC(C)N=C(N)/N=C(\N)NOCCCOc1cc(Cl)c(Cl)cc1Cl | 101 |  |  | 19.5 µg/mL
Cc1ccc2nc(SCc3cccc(Br)c3)[nH]c2c1 | MY330/88 |  |  | 62 µM
CS/C(N)=N/NC(=O)c1ccccc1 | ATCC 19421 |  |  | >100 µg/mL
O=C(NCc1ccccc1)c1ncccc1S | CNCTC MY330/88 |  |  | 8 µM
O=C(NCc1cccnc1)c1ccc(Cl)cc1O | ATCC 25291 |  | 21 d | 250 µM
CN(C)c1ccc(-n2c(=O)oc3ccc(Cl)cc3c2=O)cc1 | CNCTC MY330/88 |  |  | 62 µM
COc1cccc(CSc2nc3ccc(C)cc3[nH]2)c1 | MY330/88 |  |  | >32 µM
COc1ccc(-n2c(=O)oc3ccccc3c2=O)cc1 | CNCTC MY330/88 |  |  | 31 µM
N#Cc1cnc(C(N)=O)c(Nc2cc(C(F)(F)F)cc(C(F)(F)F)c2)n1 | 80/72 |  |  | >100 µg/mL
Cc1nc2scc(-c3ccco3)c2c(=O)n1NC(=O)c1ccc(F)cc1 | CNCTC MY330/88 |  |  | 9 µM
CCCCCc1ccc(NC(=O)c2cc(Br)cc(Br)c2O)cc1 | MY330/88 |  |  | 62.5 µM
Cc1ccc(/C=N/n2c(C)nc3scc(-c4ccco4)c3c2=O)cc1 | CNCTC MY330/88 |  |  | 56 µM
N=C(N)N1N=C(/C=C/c2ccc(Cl)cc2)CC1c1ccc(Cl)cc1 |  | resazurin |  | 1.74 µM
CC[C@H]1OC(=O)[C@H](C)C(=O)[C@H](C)[C@@H](O[C@@H]2O[C@H](C)C[C@H](N(C)C)[C@H]2O)[C@](C)(OC)C[C@@H](C)C(=O)[C@H](C)[C@H]2N(CCCCn3cnc(-c4cccnc4)c3)C(=O)O[C@]12C | ATCC 25291 |  |  | 1.25 µg/mL
COc1ccc(C(=O)NCc2ccccc2)c(O)c1 | ATCC 25291 |  | 14 d | 125 µM
NC(=S)NNC(=O)c1ccc(Cl)cc1Cl | ATCC 19421 |  |  | >100 µg/mL
COc1ccc2oc(=O)n(-c3ccc(Cl)c(Cl)c3)c(=S)c2c1 | MY330/88 |  | 14 d | 62.5 µM
CCCCCCOc1ccc(NC(=O)OCCN(C)C)cc1 | MY330/88 |  |  | 8 µM
CCOC(=O)c1ccc(-n2c(=O)oc3cc(Cl)ccc3c2=O)cc1 | CNCTC MY330/88 |  |  | 16 µM
Cc1cccc(C)c1Nc1nc(C#N)cnc1C(N)=O | 80/72 |  |  | >100 µg/mL
CCCCCCCOc1cccc(NC(=O)OCCN2CCCCC2)c1 | MY330/88 |  |  | 16 µM
O=C(Nc1ccc(Cl)cc1)c1ncccc1O | CNCTC MY330/88 |  |  | 32 µM
FC(F)(F)c1cc(-c2ccccc2)nc(N2N=C(/C=C/c3ccc(Cl)cc3)CC2c2ccc(Cl)cc2)n1 |  | resazurin |  | >20.6 µM
CCCCCOc1cccc(NC(=O)OCC[NH+]2CCCC2)c1 | MY330/88 |  |  | 62.5 µM
CCCCCc1ccc(NC(=O)c2cc(Cl)ccc2O)cc1 | MY330/88 |  |  | 16 µM
CCOc1c(N2CCC(C(C)(C)N)C2)c(F)cc2c(=O)c(C(=O)O)cn(C3CC3)c12 | RG2 |  |  | 1 µg/mL
Clc1ccc2c(c1)nc1cc(Nc3ccccc3)c(=NC3CCCCC3)cc-1n2-c1ccccc1 | ATCC |  |  | 0.5 µg/mL
COC(=O)c1cnccn1 | 101 |  |  | >256 µg/mL
COc1ccc(C(=O)NCc2cccnc2)c(O)c1 | ATCC 25291 |  | 14 d | 1000 µM
C=CCS/C(N)=N/NC(=O)c1ccc(F)cc1 | ATCC 19421 |  |  | >100 µg/mL
c1ccc(CSc2ncnc3ccccc23)cc1 | D 5/93 |  |  | 63 µM
O=C(Nc1ccc(Br)cc1)c1ncccc1S | CNCTC MY330/88 |  |  | 16 µM
COc1ccc2oc(=O)n(-c3cccc(Cl)c3)c(=S)c2c1 | MY330/88 |  | 14 d | 62.5 µM
Cc1ccc(C(=O)NCc2ccccn2)c(O)c1 | ATCC 25291 |  | 14 d | 250 µM
CCCOC(=O)c1cnc(C)cn1 | ATCC49601 |  |  | 64 µg/mL
Cc1ccc2nc(SCc3ccc(Cl)c(Cl)c3)[nH]c2c1 | MY330/88 |  |  | 32 µM
CCCc1ccc(NC(=O)c2cc(Br)ccc2O)cc1 | MY330/88 |  |  | 16 µM
O=C(NCc1ccc(F)cc1)c1ncccc1S | CNCTC MY330/88 |  |  | 8 µM
O=c1oc2ccc(F)cc2c(=O)n1-c1ccc(Cl)cc1 | CNCTC MY330/88 |  |  | 8 µM
O=C(Nc1cccc(Cl)c1)c1ccccc1O | CNCTC MY330/88 |  |  | 31 µM
CCCCCCc1ccc(NC(=O)c2cc(Br)cc(Br)c2O)cc1 | MY330/88 |  |  | 32 µM
C=CCSc1ncnc2ccccc12 | D 5/93 |  |  | 250 µM
O=c1oc2ccc([N+](=O)[O-])cc2c(=O)n1-c1ccccc1 | CNCTC MY330/88 |  |  | 500 µM
CC(C)(C)n1cc(C(=O)O)c(=O)c2cc(F)c(N3CCNCC3)nc21 | SMT |  |  | 2 µg/mL
Cc1ccc2nc(SCc3cccc(C(F)(F)F)c3)[nH]c2c1 | MY330/88 |  |  | 62 µM
COc1ccc2oc(=S)n(-c3ccc(C(F)(F)F)cc3)c(=S)c2c1 | MY330/88 |  | 21 d | 125 µM
Cc1ccc(C(=O)NCc2cccnc2)c(O)c1 | ATCC 25291 |  | 21 d | 1000 µM
Cc1ccc2oc(=O)n(-c3ccccc3)c(=O)c2c1 | CNCTC MY330/88 |  |  | 32 µM
CCCCCC(CC)OC(=O)c1cnc(Cl)cn1 | 101 |  |  | 64 µg/mL
S=c1oc2ccc(Br)cc2c(=S)n1-c1ccc(Cl)cc1 | MY330/88 |  | 14 d | 32 µM
Cc1ccc(NC(=O)c2ccccc2O)cc1 | CNCTC MY330/88 |  |  | 62.5 µM
CCCCOc1ccc(NC(=O)OCCN2CCOCC2)cc1 | MY330/88 |  |  | 125 µM
CCCCCCc1ccc(NC(=O)c2cc(Cl)ccc2O)cc1 | MY330/88 |  |  | 16 µM
CCCCCCCCC(CC)OC(=O)c1cnc(Cl)cn1 | 101 |  |  | >256 µg/mL
CCCCCCCc1ccc(NC(=O)c2ccc(Cl)cc2O)cc1 | MY330/88 |  |  | 4 µM
O=C(Nc1ccccc1)c1ccccc1O | CNCTC MY330/88 |  |  | 125 µM
COc1ccc(/C=N/n2c(C)nc3scc(-c4ccco4)c3c2=O)cc1 | CNCTC MY330/88 |  |  | 14 µM
CCCc1ccc(NC(=O)c2cc(Cl)ccc2O)cc1 | MY330/88 |  |  | 8 µM
CS/C(N)=N/NC(=O)c1ccc(Cl)cc1 | ATCC 19421 |  |  | >100 µg/mL
CC(=O)Nn1c(C)nc2scc(-c3ccco3)c2c1=O | CNCTC MY330/88 |  |  | 86 µM
C=CCS/C(N)=N/NC(=O)c1ccc([N+](=O)[O-])cc1 | ATCC 19421 |  |  | >100 µg/mL
COc1ccc2oc(=O)n(-c3ccc(Br)cc3)c(=S)c2c1 | MY330/88 |  | 21 d | 62.5 µM
C[C@H]1COc2c(N3CCN(C)CC3)c(F)cc3c(=O)c(C(=O)O)cn1c23 | 25-3 |  |  | 0.5 µg/mL
Cc1nc2scc(-c3ccco3)c2c(=O)n1NC(=O)C1CC1 | CNCTC MY330/88 |  |  | 89 µM
Cc1cccc(C(=O)NCc2cccnc2)c1O | ATCC 25291 |  | 14 d | 500 µM
c1ccc(CCSc2ncnc3ccccc23)cc1 | D 5/93 |  |  | 63 µM
Cc1ccc2nc(SCc3cccc(C#N)c3)[nH]c2c1 | MY330/88 |  |  | 62 µM
N=C(N)N1N=C(/C=C/c2ccccc2)CC1c1ccccc1 |  | resazurin |  | 2.15 µM
Cc1ccc2oc(=O)n(-c3ccc(Cl)cc3)c(=S)c2c1 | MY330/88 |  | 21 d | 2 µM
CCCCCC(C)(CCCCC)OC(=O)c1cnc(Cl)cn1 | ATCC49601 |  |  | >64 µg/mL

Again, the opening 11 rows:

{"structure": "Cc1ccc2nc(SCc3cc(C(F)(F)F)cc(C(F)(F)F)c3)[nH]c2c1", "strain or isolate": "MY330/88", "value": "125 µM"}
{"structure": "CCCCS/C(N)=N/NC(=O)c1ccccc1", "strain or isolate": "ATCC 19421", "value": ">100 µg/mL"}
{"structure": "Cc1ccc(Nc2nc(C#N)cnc2C(N)=O)cc1[N+](=O)[O-]", "strain or isolate": "80/72", "value": ">100 µg/mL"}
{"structure": "O=C(Nc1ccc(F)cc1)c1ccccc1O", "strain or isolate": "CNCTC MY330/88", "value": "62.5 µM"}
{"structure": "CCCCc1ccc(NC(=O)c2cc(Br)cc(Br)c2O)cc1", "strain or isolate": "MY330/88", "value": "62.5 µM"}
{"structure": "CCCCCCSc1ncnc2ccccc12", "strain or isolate": "CNCTC MY66/72", "value": "63 µM"}
{"structure": "Cc1ccc(-n2c(=O)oc3ccc(Cl)cc3c2=O)cc1", "strain or isolate": "CNCTC MY330/88", "value": "8 µM"}
{"structure": "COc1cccc(Nc2nc(C#N)cnc2C(N)=O)c1", "strain or isolate": "80/72", "value": ">100 µg/mL"}
{"structure": "CC(C)N=C(N)/N=C(\\N)NOCCCOc1cc(Cl)c(Cl)cc1Cl", "strain or isolate": "101", "value": "19.5 µg/mL"}
{"structure": "Cc1ccc2nc(SCc3cccc(Br)c3)[nH]c2c1", "strain or isolate": "MY330/88", "value": "62 µM"}
{"structure": "CS/C(N)=N/NC(=O)c1ccccc1", "strain or isolate": "ATCC 19421", "value": ">100 µg/mL"}

Lines come from different laboratories, so protocols vary.